A mixed list of measured activities; the numbers were collected in NIAID ChemDB.

All rows: whole-cell or culture tests; organism: HIV-1; read-out: fold resistance

An empty or dashed field is not shown. Rows are shuffled and stem from different studies. Fold resistance: result on the changed form divided by that on wild type.

| SMILES | strain or isolate | changes | cell line | read by | result |
|---|---|---|---|---|---|
| Cc1ccc(S(=O)(=O)N(CC(C)C)C[C@@H](O)[C@H](Cc2ccccc2)NC(=O)O[C@H]2CO[C@H]3OCC[C@H]32)cc1 | IIIB | K112M K113E V128I M200I H219P | MT-2 | p24 / ELISA | 3.7 |
| N#Cc1cc2[nH]c3ccccc3c2n(-c2ccc([N+](=O)[O-])cc2)c1=O | NNRTI-resistant | RT-K103N V108I | HeLa | luciferase | 1.2 |
| CCOP(=O)(COc1ccc(C[C@H](NC(=O)O[C@H]2CO[C@H]3OCC[C@H]32)[C@H](O)CN(CC(C)C)S(=O)(=O)c2ccc(OC)cc2)cc1)OCC | IIIB | M200I | MT-2 | p24 / ELISA | 1.1 |
| CCCN(C)C(=O)Oc1nsnc1-c1c(Cl)ccc(N)c1Cl | IIIB | RT-Y181C | MAGI | MTT | 84.2 |
| Nc1nc(=O)n([C@@H]2CS[C@H](CO)O2)cc1F | RTMC(184) (RT D67N K70R M184V T215F K219Q) | RT-D67N K70R M184V T215F K219Q | HT4 + HT4 LacZ-1 | plaque count | >5560 |
| C[C@H](Cn1cnc2c(N)ncnc21)OCP(=O)(O)O | Recombinant | RT-M41L A62V S68N G112S V118I M184V | HeLa | luciferase | 0.4 |
| Nc1nc2c(ncn2[C@H]2CO[C@@H](CO)O2)c(=O)[nH]1 | RT-41L 74V 215Y 106A | RT-M41L L74V V106A T215Y |  |  | 2.5 |
| Cc1cc(S(N)(=O)=O)ccc1NC(=O)COc1ccc(Cl)cc1C(=O)c1cc(Cl)cc(C#N)c1 | NNRTI-resistant (RT V106I Y181C) | RT-V106I Y181C | MAGI | β-galactosidase | 9.4 |
| Cn1c2ccccc2c2c1cc(C#N)c(=O)n2-c1ccc([N+](=O)[O-])cc1 | NRTI resistant | RT-M41L D67N V118I M184V L210W T215Y | HeLa | luciferase | 4.4 |
| Cc1ccnc2c1NC(=O)c1cccnc1N2C1CC1 | NL4-3 | RT-K103N M184V | MAGI (CCR5) + MAGI | β-galactosidase | 37.7 |
| O=c1[nH]cnc2c1ncn2[C@H]1CC[C@@H](CO)O1 | RTMC | RT-D67N K70R T215Y K219Q | HT4 + HT4 LacZ-1 | plaque count | 1.43 |
| Cc1cn([C@H]2C[C@H](N=[N+]=[N-])[C@@H](CO)O2)c(=O)[nH]c1=O | IIIB | M200I | MT-2 | p24 / ELISA | 1.3 |
| C#C[C@@]1(CO)C=C[C@H](n2cc(C)c(=O)[nH]c2=O)O1 | HXB2 | RT-K65R | MAGI (CCR5) + MAGI | β-galactosidase | 0.86 |
| O=c1[nH]cnc2c1ncn2[C@H]1CC[C@@H](CO)O1 | RT-69N 70R 151M 215F | RT-T69N K70R Q151M T215F |  |  | 3 |
| O=c1[nH]cnc2c1ncn2[C@H]1CC[C@@H](CO)O1 | JF20 (RT D67N T69D L210W T215Y) | RT-D67N T69D L210W T215Y | HELA-CD4+ | plaque count | 1.5 |
| O=c1[nH]cnc2c1ncn2[C@H]1CC[C@@H](CO)O1 | HXB2(184) (RT-M184V) | RT-M184V | HT4 + HT4 LacZ-1 | plaque count | 2.81 |

The last 2 rows once more:

SMILES	strain or isolate	changes	cell line	read by	result
O=c1[nH]cnc2c1ncn2[C@H]1CC[C@@H](CO)O1	JF20 (RT D67N T69D L210W T215Y)	RT-D67N T69D L210W T215Y	HELA-CD4+	plaque count	1.5
O=c1[nH]cnc2c1ncn2[C@H]1CC[C@@H](CO)O1	HXB2(184) (RT-M184V)	RT-M184V	HT4 + HT4 LacZ-1	plaque count	2.81